## Potato spindle tuber viroid, loop 6: variant abundance in plants

From the data files of Wu et al. 2024, doi:10.1371/journal.ppat.1012142.

PSTVd intermediate strain, loop 6: wild type UGACCGCGAG, pool pattern UNNNCGNNNG; upper and lower strand joined, each 5' to 3', the first 5 letters being the upper strand, closing pairs included.

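Three N. benthamiana plants were inoculated with the whole mutant pool. Samples came from the inoculated region at 5 days, the leaf margin at 10 and upper systemic leaves at 12.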

Values are reads per thousand in the sample; higher means more abundant, 0 means not found.
Each site shows the three plants.
"Pool" is the share in the plasmid pool used as inoculum, on the same scale.
The inoculated region was read from the minus strand, the other sites from the plus strand.

sequence,pool,inoculated region,leaf margin,systemic leaves
UGGUCGCCCG,0.301,0.139 / 0.0898 / 0.0738,0 / 0 / 0,0 / 0 / 0
UGGUCGCCGG,0.157,0.104 / 0.126 / 0.0369,0 / 0 / 0,0 / 0 / 0
UGGUCGCCUG,0.261,0.104 / 0.0539 / 0.0553,0 / 0 / 0.0232,0 / 0 / 0
UGGUCGCGAG,0.209,0.191 / 0.126 / 0.203,0 / 0 / 0.0928,0.0180 / 0.141 / 0.103
UGGUCGCGCG,0.275,0.139 / 0.0539 / 0.0922,0 / 0 / 0,0 / 0 / 0
UGGUCGCGGG,0.353,0.104 / 0.0719 / 0,0 / 0 / 0,0 / 0 / 0
UGGUCGCGUG,0.248,0.0348 / 0.0539 / 0.184,0 / 0 / 0,0 / 0 / 0
UGGUCGCUAG,0.170,0.0695 / 0.0898 / 0.129,0 / 0 / 0.0232,0 / 0 / 0
UGGUCGCUCG,0.275,0.156 / 0.0359 / 0,0 / 0 / 0,0 / 0 / 0
UGGUCGCUGG,0.196,0.104 / 0.0719 / 0.0369,0.0276 / 0 / 0.0232,0 / 0 / 0
UGGUCGCUUG,0.301,0.104 / 0.198 / 0.0738,0 / 0 / 0.0464,0 / 0 / 0
UGGUCGGAAG,0.118,0.209 / 0.0359 / 0.0738,0 / 0 / 0,0 / 0 / 0
UGGUCGGACG,0.170,0.0695 / 0.0898 / 0.0922,0 / 0 / 0.0232,0 / 0 / 0
UGGUCGGAGG,0.327,0.156 / 0.108 / 0.166,0 / 0 / 0.0232,0 / 0 / 0
UGGUCGGAGU,0.0131,0 / 0 / 0,0 / 0 / 0,0 / 0 / 0
UGGUCGGAUG,0.170,0.0869 / 0.0898 / 0.0369,0.0828 / 0 / 0,0.0180 / 0 / 0
UGGUCGGCAG,0.209,0.0869 / 0.0719 / 0.0553,0 / 0 / 0,0 / 0 / 0
UGGUCGGCCG,0.235,0.122 / 0.0898 / 0.0738,0 / 0 / 0,0 / 0 / 0
UGGUCGGCGG,0.118,0.104 / 0.0539 / 0.0553,0 / 0 / 0,0 / 0 / 0
UGGUCGGCUG,0.353,0.156 / 0.0898 / 0.0553,0.0276 / 0 / 0,0 / 0 / 0
UGGUCGGGAG,0.275,0.747 / 0.701 / 0.590,0.0828 / 0.177 / 0.0696,0 / 0 / 0
UGGUCGGGCG,0.183,0.0348 / 0.0719 / 0.0553,0 / 0 / 0,0 / 0 / 0
UGGUCGGGGC,0.0261,0 / 0 / 0,0 / 0 / 0,0 / 0 / 0
UGGUCGGGGG,0.196,0.104 / 0.0180 / 0.111,0 / 0 / 0,0 / 0 / 0
UGGUCGGGUG,0.170,0.0869 / 0.0719 / 0.0922,0 / 0 / 0,0 / 0 / 0
UGGUCGGUAG,0.196,0.0521 / 0.0898 / 0,0 / 0 / 0,0 / 0 / 0
UGGUCGGUCG,0.314,0.0695 / 0.126 / 0.0553,0 / 0 / 0,0 / 0 / 0
UGGUCGGUGG,0.183,0.0521 / 0.0539 / 0.0738,0 / 0 / 0.0232,0 / 0 / 0
UGGUCGGUUG,0.301,0.0695 / 0.0539 / 0.0738,0 / 0 / 0.0464,0 / 0 / 0
UGGUCGUAAG,0.118,0.209 / 0.0719 / 0.148,0.0276 / 0 / 0,0 / 0 / 0
UGGUCGUACG,0.275,0.0695 / 0.108 / 0.0738,0 / 0 / 0,0 / 0 / 0
UGGUCGUAGG,0.314,0.0869 / 0.0359 / 0.0738,0 / 0 / 0.0232,0 / 0 / 0
UGGUCGUAUG,0.301,0.0521 / 0.162 / 0.0369,0.276 / 0 / 0.0232,0 / 0 / 0
UGGUCGUCAG,0.314,0.122 / 0.126 / 0.0553,0 / 0 / 0,0 / 0 / 0
UGGUCGUCCG,0.157,0.104 / 0.0539 / 0.0184,0 / 0 / 0,0 / 0 / 0
UGGUCGUCGG,0.170,0.191 / 0.0539 / 0.129,0 / 0 / 0.0232,0 / 0 / 0
UGGUCGUCUG,0.366,0.0521 / 0.126 / 0.0738,0 / 0 / 0,0 / 0 / 0
UGGUCGUGAG,0.248,0.104 / 0.0539 / 0.166,0.0552 / 0 / 0,0 / 0 / 0
UGGUCGUGCG,0.196,0.139 / 0.108 / 0.0553,0.0276 / 0 / 0.0232,0 / 0 / 0
UGGUCGUGGG,0.209,0.139 / 0.0539 / 0.0738,0 / 0 / 0.0232,0 / 0 / 0
UGGUCGUGUG,0.288,0.174 / 0.126 / 0.0369,0 / 0 / 0,0 / 0 / 0
UGGUCGUUAG,0.366,0.0869 / 0.144 / 0.111,0 / 0 / 0,0 / 0 / 0
UGGUCGUUCG,0.353,0.0695 / 0.0898 / 0.0922,0 / 0 / 0,0 / 0 / 0
UGGUCGUUGG,0.301,0.156 / 0.108 / 0,0 / 0 / 0.0232,0 / 0 / 0
UGGUCGUUUG,0.379,0.122 / 0 / 0.0369,0 / 0 / 0,0 / 0 / 0
UGGUCUGCAG,0.0131,0 / 0 / 0,0 / 0 / 0,0 / 0 / 0
UGUACCAACG,0.0131,0 / 0 / 0,0 / 0 / 0,0 / 0 / 0
UGUACCGAGG,0.0131,0 / 0 / 0,0 / 0 / 0,0 / 0 / 0
UGUACGAAAG,0.222,0.139 / 0.0539 / 0.0738,0.0276 / 0 / 0.0696,0.0359 / 0.0202 / 0
UGUACGAACG,0.157,0.174 / 0.108 / 0.0922,0.0276 / 0 / 0,0 / 0 / 0
UGUACGAAGG,0.183,0.104 / 0.108 / 0.111,0.0276 / 0 / 0.0232,0 / 0 / 0
UGUACGAAUG,0.340,0.191 / 0.162 / 0.0553,0 / 0 / 0,0 / 0 / 0
UGUACGACAG,0.340,0.104 / 0.0719 / 0.0922,0 / 0 / 0,0 / 0 / 0
UGUACGACCG,0.144,0.122 / 0.180 / 0.0369,0 / 0 / 0,0 / 0 / 0
UGUACGACGG,0.222,0.122 / 0.0898 / 0.111,0 / 0 / 0.0696,0 / 0 / 0
UGUACGACUG,0.235,0.122 / 0.108 / 0.129,0 / 0 / 0,0 / 0 / 0
UGUACGAGAG,0.209,0.643 / 0.898 / 0.756,0.0828 / 0.0504 / 0.0928,0 / 0 / 0
UGUACGAGCG,0.301,0.139 / 0.0898 / 0.0553,0 / 0 / 0.0232,0 / 0 / 0
UGUACGAGGG,0.248,0.122 / 0.0719 / 0.0922,0.0276 / 0 / 0,0 / 0 / 0
UGUACGAGUG,0.170,0.139 / 0.180 / 0.0922,0.0276 / 0 / 0,0 / 0 / 0
UGUACGAUAG,0.340,0.0869 / 0.162 / 0.0922,0 / 0 / 0.0696,0 / 0 / 0
UGUACGAUCG,0.327,0.139 / 0.0719 / 0.148,0 / 0 / 0,0 / 0 / 0
UGUACGAUGG,0.314,0.0521 / 0.0359 / 0.0553,0 / 0 / 0.0696,0 / 0 / 0

Extract of 4 entries:

{"sequence": "UGUACGACUG", "pool": "0.235", "inoculated region": "0.122 / 0.108 / 0.129", "leaf margin": "0 / 0 / 0", "systemic leaves": "0 / 0 / 0"}
{"sequence": "UGGUCGUCAG", "pool": "0.314", "inoculated region": "0.122 / 0.126 / 0.0553", "leaf margin": "0 / 0 / 0", "systemic leaves": "0 / 0 / 0"}
{"sequence": "UGGUCGUCGG", "pool": "0.170", "inoculated region": "0.191 / 0.0539 / 0.129", "leaf margin": "0 / 0 / 0.0232", "systemic leaves": "0 / 0 / 0"}
{"sequence": "UGGUCGCUAG", "pool": "0.170", "inoculated region": "0.0695 / 0.0898 / 0.129", "leaf margin": "0 / 0 / 0.0232", "systemic leaves": "0 / 0 / 0"}

For reference, wild type rose from 20.7 per thousand in the pool to 195, 198, 203 (inoculated region), 629, 591, 734 (leaf margin) and 942, 870, 868 (systemic leaves).
Samples held 36,220 to 57,551 reads, so the smallest values rest on one or two reads.
Sequences that differ at fixed positions probably stem from PCR or sequencing errors, and defective variants can be carried along by functional ones.